Assay: ELISA of bx protein expressed in E. coli extracts

B1: A432T: bx9 SEQ ID NO:1 mutant (protein)
chain: MASSRTGAGAGGRVVVFPFPFQGHFNPVMRLARALHARGLAITVFHSGALDPADYPADYRFVPVTVEADPKLLASEDIAAIVTTLNASCDAPFRARLSALLAAEGRDSVRCVFTDVSWNAVLTASSDLGVPALGMMTASAASLRDYMAYRTLIDKGYLPVKEERKEDPVPELPPYLVKDLLRVDTSDLEEFAELLARTVTAARRASGLIFNTFPLIETDTLAEIHKALSVPVFAVAPLNKLVPTATASLHGVVQADRGCLQWLDTQQPGSVLYVSFGSMAAMDPHEFVELAWGLADSKRPFVWVVRPNLIRGFESGALPDGVEDEVRGRGIVVAWAPQEEVLAHPAVGGFLTHNGWNSTVEAISEGVPMVCCPRHGDQFGNMRYVCDVWKVGTELVGEQLERGQVKAAIDRLFGTKEGEEIKERMKEFKIATAKGIGIGVDVDETASPRTDLTDLVDLIKSF
modifications: Zea mays
  expression level relative to w/t bx9 protein: ~40%

From US20200270588A1, “GLUCOSYL TRANSFERASE POLYPEPTIDES AND METHODS OF USE” (Syngenta Participations AG, priority 2017, published 2020)
